Experimental findings from publication PMC8011991 (Journal of medicinal chemistry, 2020) are described below.

Molecules are shown by their SMILES.

The test system of this assay is HIV-1 NL4–3 virus. The following applies: TZM-bl cells.
In the case of `COc1ccc(N(C)C(=O)[C@H](Cc2ccccc2)NC(=O)CN2CCN(S(=O)(=O)c3ccccc3[N+](=O)[O-])CC2=O)cc1` [Compound 11k, (S)-N-(4-methoxyphenyl)-N-methyl-2-(2-(4-((2-nitrophenyl)sulfonyl)-2-oxopiperazin-1-yl)acetamido)-3-phenylpropanamide], the “SI (selectivity index, ratio of CC50/EC50)” value is >32.81. The result for `COc1ccc(N(C)C(=O)[C@H](Cc2ccccc2)NC(=O)CN2CCN(S(=O)(=O)c3cccc(N)c3)CC2=O)cc1` [Compound 11m, (S)-2-(2-(4-((3-aminophenyl)sulfonyl)-2-oxopiperazin-1-yl)acetamido)-N-(4-methoxyphenyl)-N-methyl-3-phenylpropanamide] reads >105.19. The result for `COc1ccc(N(C)C(=O)[C@H](Cc2ccccc2)NC(=O)CN2CCN(S(=O)(=O)c3ccccc3N)CC2=O)cc1` [Compound 11n, (S)-2-(2-(4-((2-aminophenyl)sulfonyl)-2-oxopiperazin-1-yl)acetamido)-N-(4-methoxyphenyl)-N-methyl-3-phenylpropanamide] reads >64.49.
